In series [1] the test system is P. falciparum Dd2 chloroquine-resistant strain. Put plainly: In vitro antiplasmodial activity, SYBR green I fluorescence assay. The series is classed as cell-based, Plasmodium falciparum. To be noted: selectivity index = CC50 (HOE) / IC50 against P. falciparum Dd2. The protocol: Normalized fluorescence signals were measured against controls with 1% DMSO (100% growth) and after exposure to a supralethal concentration (10 μM) of chloroquine (0% growth). Determination of the 50% inhibitory concentration (IC50) was performed from a log concentration versus the mean normalized fluorescence signal curve using GraphPad Prism software (v5.0). Each biological replicate consisted of three technical repeats, with three independent biological replicates performed.

For series [2], the system named is human oral epidermoid carcinoma (KB) cells. Nature of the series: Cytotoxicity in KB cells (previous report). To be noted: selectivity index = CC50 (KB or HCT-116) / IC50 against P. falciparum W2. The series is classed as cell-based.

Results on 5 molecules are retold here after paper PMC7848973, “In Vivo Efficacy and Metabolism of the Antimalarial Cycleanine and Improved In Vitro Antiplasmodial Activity of Semisynthetic Analogues” (Antimicrobial Agents and Chemotherapy, 2021).

For `COc1cc2c3c4c1Oc1cc5c(cc1O4)C(Cc1ccc(O)c(c1)Oc1ccc(cc1)CC3NCC2)N(C)CC5` (centres unmarked) [2′-Norcocsuline (3), 2′-norcocsuline], the “SI HOE/Dd2” value in series [1] stood at 1.1.
The same measure, in the same setting: as for `COc1cc2c3c(c1OC)Oc1ccc(cc1)C[C@H]1c4c(c(CN(C)C)c(OC)c(OC)c4Oc4ccc(cc4)C[C@@H]3N(C)CC2)CCN1C` [5-[(Dimethylamino)methyl]cycleanine (4), 5-[(Dimethylamino)methyl]cycleanine], the figure is 14.3; as for `C#CCNCc1c2c3c(c(OC)c1OC)Oc1ccc(cc1)C[C@H]1c4c(cc(OC)c(OC)c4Oc4ccc(cc4)C[C@@H]3N(C)CC2)CCN1C` [5-[(Propargylamino)methyl]cycleanine (5), 5-[(Propargylamino)methyl]cycleanine], 17.8; as for `COc1cc2c3c(c1O)Oc1ccc(cc1)C[C@@H]1c4c(cc(OC)c(O)c4Oc4ccc(cc4)C[C@H]3N(C)CC2)CCN1C` [Isochondodendrine (2), isochondodendrine], 1.7.
Take cycleanine: the “SI KB/W2” value in series [2] was over 133.
